Results of unrelated studies side by side (data: NIAID ChemDB).

All rows: whole-cell or culture tests; agent: Mycobacterium kansasii

Rows are shuffled and stem from different studies.

SMILES	read by	tested at	measure	setting	strain or isolate	value
CCCNC(=O)Nc1ccc(S(=O)(=O)Nc2cc(C)on2)cc1	broth dilution / absorbance		MIC100	14 d	6509/96 clinical isolate	500 µM
O=C(N[C@@H]([C@@H](O)CNCc1cccc(I)c1)C(F)(F)c1ccccc1)OCc1ccccc1	broth dilution		MIC		T	128 µg/mL
O=C(Nc1ccc(Cl)cc1)c1cc(Cl)ccc1OP(=O)(OCc1ccccc1)OCc1ccccc1			MIC	14 d	My 235/80	32 µM
CC[C@H]1OC(=O)[C@H](C)[C@@H](O[C@H]2C[C@@](C)(OC)[C@@H](O)[C@H](C)O2)[C@H](C)[C@@H](O[C@@H]2O[C@H](C)C[C@H](N(C)C)[C@H]2O)[C@](C)(OC)C[C@@H](C)C(=O)[C@H](C)[C@@H](O)[C@]1(C)O			MIC90		104 clinical isolates	0.125 µg/mL
Cc1cc(NS(=O)(=O)c2ccc(NC(=O)C(=O)Nc3ccc(S(=O)(=O)Nc4cc(C)on4)cc3)cc2)no1	broth dilution / absorbance		MIC100	21 d	235/80	8 µM
CCCN(CCC)C(=O)c1cc(C)cc(C(=O)N[C@@H](Cc2ccccc2)[C@H](O)CNCc2cccc(I)c2)c1	agar diffusion	100 µg/disc	zone		262	18 mm
O=C1c2cc(Cl)ccc2OP(=O)(c2ccccc2)N1c1ccc(Cl)cc1			MIC	14 d	My 235/80	16 µM
Cc1cc(NS(=O)(=O)c2ccc(NC(=O)N3CCC3)cc2)no1	broth dilution / absorbance		MIC100	21 d	235/80	8 µM
CC[C@@H](CO)NCCN[C@@H](CC)CO	agar diffusion	100 µg/disc	zone		262	>55 mm
O=C(Nc1ccc(C(F)(F)F)cc1)c1cc(Br)ccc1OP(=O)(Oc1ccccc1)Oc1ccccc1			MIC	21 d	My 6509/96	4 µM
CCCN(CCC)C(=O)c1cc(C)cc(C(=O)N[C@H]([C@H](O)CNCc2cccc(I)c2)C(F)(F)c2ccccc2)c1	agar diffusion	100 µg/disc	zone		262	0 mm
O=C1c2cc(Br)ccc2OP(=O)(c2ccccc2)N1c1ccc(C(F)(F)F)cc1			MIC	14 d	My 235/80	8 µM
CCCCCCCCCCNC(=O)Nc1ccc(S(=O)(=O)Nc2cc(C)on2)cc1	broth dilution / absorbance		MIC100	14 d	235/80	125 µM
O=C(Nc1ccc(Cl)cc1)c1cc(Cl)ccc1OP(=O)(Oc1ccccc1)Oc1ccccc1			MIC	14 d	My 235/80	8 µM
CNC(=O)Nc1ccc(S(=O)(=O)Nc2cc(C)on2)cc1	broth dilution / absorbance		MIC100	21 d	6509/96 clinical isolate	32 µM

Repeating the final 2 entries:

{"SMILES": "O=C(Nc1ccc(Cl)cc1)c1cc(Cl)ccc1OP(=O)(Oc1ccccc1)Oc1ccccc1", "measure": "MIC", "setting": "14 d", "strain or isolate": "My 235/80", "value": "8 µM"}
{"SMILES": "CNC(=O)Nc1ccc(S(=O)(=O)Nc2cc(C)on2)cc1", "read by": "broth dilution / absorbance", "measure": "MIC100", "setting": "21 d", "strain or isolate": "6509/96 clinical isolate", "value": "32 µM"}

An empty or dashed field is not shown. MIC50, MIC90 and the like: level of inhibition, or share of isolates inhibited. Zones are inhibition diameters on agar.